The values that follow are results of earlier work, collected in patent US20100311767A1 (priority 2007, published 2010).

The target of series [1] is P/Q type voltage-gated presynaptic calcium channel (Q type). The settings on record: cited from earlier work.
The target of series [2] is P/Q type voltage-gated presynaptic calcium channel (P type). To be noted: cited from earlier work.

As for ω-agatoxin IVA, the Kd is 100 to 200 nM in series [1] and 1 to 3 nM in series [2].

As a reminder, the Kd is the free concentration of one partner at which half of the binding sites on the other are occupied at equilibrium, for simple one-to-one binding.
